Assay results reported in patent US8318697B2, “Prophylactic and therapeutic treatment of infectious and other diseases with mono- and disaccharide-based compounds” (Corixa Corporation, priority 2000, dated 2012).

Test system: influenza A/HK/68
Assay: Lethal influenza challenge model, intranasal monotherapy
Settings: 20 μg i.n. […] challenge, ~2 LD50; FIG. 3

| Compound | protection against influenza challenge (disease index, weight loss, mortality) |
| --- | --- |
| CCCCCCCCCCCCCC(=O)O[C@H](CCCCCCCCCCC)CC(=O)N[C@H]1[C@H](OC[C@H](NC(=O)C[C@@H](CCCCCCCCCCC)OC(=O)CCCCCCCCCCCCC)C(=O)O)O[C@H](CO)[C@@H](OP(=O)(O)O)[C@@H]1OC(=O)C[C@@H](CCCCCCCCCCC)OC(=O)CCCCCCCCCCCCC.CCN(CC)CC [RC-512] | substantial protection against influenza challenge |
| CCCCCCCCCCC[C@H](CC(=O)N[C@H]1[C@H](OC[C@H](NC(=O)C[C@@H](CCCCCCCCCCC)OC(=O)CCCCCCCCCC)C(=O)O)O[C@H](CO)[C@@H](OP(=O)(O)O)[C@@H]1OC(=O)C[C@@H](CCCCCCCCCCC)OC(=O)CCCCCCCCCC)OC(=O)CCCCCCCCCC.CCN(CC)CC [RC-538] | substantial protection against influenza challenge |
| CCCCCCCCCCCC(=O)O[C@H](CCCCCCCCCCC)CC(=O)N[C@H]1[C@H](OC[C@H](NC(=O)C[C@@H](CCCCCCCCCCC)OC(=O)CCCCCCCCCCC)C(=O)O)O[C@H](CO)[C@@H](OP(=O)(O)O)[C@@H]1OC(=O)C[C@@H](CCCCCCCCCCC)OC(=O)CCCCCCCCCCC.CCN(CC)CC [RC-560] | substantial protection against influenza challenge |
